Anti-infective test results gathered from many reports (values: NIAID ChemDB through PubChem).

Shared fields: whole-cell or culture tests; species: Mycobacterium tuberculosis

Neighbouring rows are from separate reports. Inhibition is in % at the dose shown (toxicity tests: loss of growth or viability). MIC bound: limit read from a one-dose screen. ECn: concentration that inhibits the pathogen or its effect by n%. An empty or dashed field is not shown.

SMILES | measure | dose | strain | read by | result
CC(=O)Nc1ccccc1O | MIC |  | H37Rv |  | 50 µg/mL
COc1ccc(OC)c(CCNCCNC23CC4CC(CC2C4)C3)c1 | MIC |  |  |  | 25 µM
C=CCC1=C(C)C(OC(=O)/C=C/c2ccccc2Cl)CC1=O | MIC bound |  | H37Rv | BACTEC | >12.5 µg/mL
Nc1ccc2c(c1)S(=O)(=O)c1cc(N)ccc1O2 | MIC |  | H37Rv |  | >100 µg/mL
C[C@@H](O)[C@H](N)C(=O)O | MIC bound |  | H37Rv | BACTEC | >12.5 µg/mL
NCC[C@H](O)C(=O)N[C@@H]1C[C@H](N)[C@@H](O[C@H]2O[C@H](CN)[C@@H](O)[C@H](O)[C@H]2O)[C@H](O)[C@H]1O[C@H]1O[C@H](CO)[C@@H](O)[C@H](N)[C@H]1O | MIC |  | MDR16 | broth dilution / resazurin | 8 µg/mL
CCOC(=O)Nc1cc(Nc2ccc(Cl)cc2)c2ncc(-c3ccc(Cl)cc3)nc2n1 | EC50 |  | H37Rv |  | >12.5 µg/mL
O=S(=O)(O)c1ccc2ccc(O)cc2c1 | MIC |  | H37Rv |  | >100 µg/mL
CCOC(=O)Nc1cc(C[C@@H](C)[C@H](O)c2ccccc2)c(N)c(N)n1 | inhibition | 12.5 µg/mL | H37Rv |  | 0%
COC[C@H](NCCNC[C@]1(C)CCC[C@]2(C)c3ccc(C(C)C)cc3CC[C@@H]12)[C@@H](O)c1ccccc1 | MIC |  |  |  | 50 µM
Nc1cc2ccccc2cc1C(=O)O | MIC |  | H37Rv |  | 25 µg/mL
COc1ccc(/C=C/C(=O)c2cc(C(=O)O)ccc2O)cc1 | EC50 |  |  |  | >12.5 µg/mL
COc1c(OC/C=C(\C)CCC=C(C)C)ccc2ccc(=O)oc12 | MIC |  | H37Rv | BACTEC | 32 µg/mL
CC(NCCNCc1ccc(C(F)(F)F)cc1)c1cccc2ccccc12 | MIC |  |  |  | 12.5 µM
NC[C@H]1O[C@H](O[C@H]2[C@H](O)[C@@H](O[C@H]3O[C@H](CO)[C@@H](O)[C@H](N)[C@H]3O)[C@H](N)C[C@@H]2N)[C@H](O)[C@@H](O)[C@@H]1O | MIC |  | TN810 (001/19) |  | >256 µg/mL
COC(=O)c1cccc(OC)c1-c1c(OC)cccc1C(=O)OC | MIC |  | H37Rv |  | 100 µg/mL
CC1(C)[C@H]2CC[C@@H](CNCCNCCC(c3ccccc3)c3ccccc3)[C@@H]1C2 | MIC |  |  |  | 6.25 µM
O=C1C=C(Nc2ccc(S(=O)(=O)c3ccc(NC4=CC(=O)C(=O)c5ccccc54)cc3)cc2)c2ccccc2C1=O | inhibition | 6.25 µg/mL | H37Rv | resazurin | 43%
O=C(Nc1cccc(Cl)c1)c1c[nH]c2cc(Cl)ccc2c1=O | MIC |  | H37Rv |  | >100 µg/mL
CCOC(=O)Nc1cc(NC(C)CCCN(CC)CC)c([N+](=O)[O-])c(N)n1 | EC50 |  | H37Rv |  | >12.5 µg/mL
c1ccc(C(CCNCCNCC23CC4CC(CC(C4)C2)C3)c2ccccc2)cc1 | MIC |  |  |  | 6.25 µM
Oc1oc(-c2ccccc2)nc1/C=C1/C=NN=N1 | MIC bound |  | H37Rv | BACTEC | >12.5 µg/mL
CC(C)=CCC/C(C)=C/CNCCNCCc1ccccc1Cl | MIC |  |  |  | 50 µM
CC1(C)[C@@H]2CC[C@@]1(C)[C@@H](NCCNCC(c1ccccc1)c1ccccc1)C2 | MIC |  |  |  | 6.25 µM
Clc1ccccc1CCNCCNC(c1ccccc1)c1ccccc1 | MIC |  |  |  | 50 µM
O=C1c2c(O)cc(O)cc2OC(c2ccc(O)cc2)C1c1c(O[C@@H]2O[C@H](CO)[C@@H](O)[C@H](O)[C@H]2O)cc(O)c2c(=O)cc(-c3ccc(O)cc3)oc12 | inhibition | 12.5 µg/mL | H37Rv |  | 0%
CCCCCCCCCCCCCCCCNC(N)=O | MIC |  | H37Rv |  | >100 µg/mL
CO[C@H]1/C=C/O[C@@]2(C)Oc3c(C)c(O)c4c(O)c(c5c(c4c3C2=O)NC2(CCN(CC(C)C)CC2)N=5)=NC(=O)/C(C)=C\C=C\[C@H](C)[C@H](O)[C@@H](C)[C@@H](O)[C@@H](C)[C@H](OC(C)=O)[C@@H]1C | MIC |  | 3147 (rifampin-sensitive) |  | 0.012 µg/mL
N#CCC(=O)N/N=C1\C(=O)NC(=O)C(=O)C1c1nc2ccccc2s1 | inhibition | 12.5 µg/mL | H37Rv | BACTEC | -2%
CC(C)c1ccc2c(c1)CC[C@H]1[C@](C)(CNCCNCc3ccccc3Sc3ccccc3CO)CCC[C@]21C | MIC |  |  |  | 50 µM
c1cc2c(cc1[C@H]1OC[C@H]3[C@@H]1CO[C@@H]3c1ccc3c(c1)OCO3)OCO2 | inhibition | 12.5 µg/mL | H37Rv | BACTEC | 0%
CC(C)(O)C(C)(C)O | MIC |  | H37Rv |  | >100 µg/mL
COc1ccc(/C=N/NC(=O)CN(CC(=O)N/N=C/c2ccc(OC)cc2)N=O)cc1 | inhibition | 12.5 µg/mL | H37Rv | BACTEC | 25%
Cc1ccc(-c2ccccn2)cc1 | MIC |  | H37Rv |  | >100 µg/mL
CNC(=O)c1cc(NC(=O)N(CCC#N)CCN(C(=O)NC(Cc2ccccc2)C(=O)NC(CC(C)C)C(=O)NC)c2ccccc2)ccc1OC | MIC bound |  | H37Rv | resazurin | >6.25 µg/mL
O=C(O)/C=C/c1cccc([N+](=O)[O-])c1 | MIC |  | H37Rv |  | 50 µg/mL
CC[C@@H](CO)NCCNC1CCCCCCC1 | MIC |  |  |  | 25 µM
Cc1c(N=Nc2ccccc2Cl)c(-c2ccccc2)nn1C(=S)S | inhibition | 128 µg/mL | H37Rv | BACTEC | 100%
CC(=O)Oc1ccccc1C(OC(C)=O)OC(C)=O | MIC |  | H37Rv |  | 50 µg/mL
CCCCCNCCNCCc1ccc(F)cc1 | MIC |  |  |  | 12.5 µM
COc1ccc(C2CC(=O)c3cc(F)ccc3O2)cc1 | EC50 |  |  |  | >12.5 µg/mL
CC(=O)Oc1c(C)c(OC(C)=O)c2c(c1C(C)=O)OC1CC(=O)C(C(C)=O)=C(O)C21C | MIC bound |  | H37Rv | BACTEC | >12.5 µg/mL
CCOC(=O)Nc1cc(=O)c([N+](=O)[O-])c(N)[nH]1 | EC50 |  | H37Rv |  | >12.5 µg/mL
C[C@@H]1CN[C@@H](C)CN1C(=S)S | inhibition | 12.5 µg/mL | H37Rv | BACTEC | 16%
O=[N+]([O-])c1ccc(/C=C/c2ccc([N+](=O)[O-])cc2S(=O)(=O)[O-])c(S(=O)(=O)[O-])c1.[Na+].[Na+] | MIC |  | H37Rv |  | >100 µg/mL
CC1=C(N)C(=O)C2=C(C1=O)N1C[C@H]3[C@H](N3C)[C@]1(O)[C@@H]2COC(N)=O | MIC bound |  | H37Rv | BACTEC | ≤12.8 µg/mL
CCCCC(CC)CN1CN(CC(CC)CCCC)CC(C)(NCCN[C@@H](C)C2CCCCC2)C1 | MIC |  |  |  | 25 µM
c1cc2c(cc1-c1ncc3cc4c(cc3n1)OCO4)OCO2 | MIC |  | H37Rv |  | >100 µg/mL
CO[C@H]1/C=C/O[C@@]2(C)Oc3c(C)c(O)c4c(=O)c(c5oc6cc(N7CCN(CC(C)C)CC7)cc(=O)c6nc5c4c3=C2O)NC(=O)/C(C)=C\C=C\[C@H](C)[C@H](O)[C@@H](C)[C@@H](O)[C@@H](C)[C@H](OC(C)=O)[C@@H]1C | MIC |  | 2749 (rifampin-sensitive) |  | 0.025 µg/mL
c1ccc(CCCCNCCNCCC(c2ccccc2)c2ccccc2)cc1 | MIC |  |  |  | 12.5 µM
C/C(=N\NC(=O)C[N+](C)(C)C)C(CN(C)C)C(=O)Nc1ccccc1.[Cl-] | MIC bound |  | H37Rv | BACTEC | >12.5 µg/mL
CC(=O)c1ccc(N)cc1 | MIC |  | H37Rv |  | 25 µg/mL
COc1ccc(C2Oc3cc(F)ccc3C(=O)C2O)cc1 | inhibition | 12.5 µg/mL |  |  | 50%
CCOc1ccccc1CNCCNCCCCc1ccccc1 | MIC |  |  |  | 50 µM
COC(=O)CCCCCCCCCCOC(=O)Nc1ccccc1 | MIC |  | H37Rv |  | >100 µg/mL
CC(C)=CCC/C(C)=C/CNCCN1CCCC2CCCCC21 | MIC |  |  |  | 25 µM
C[C@H](N)C(=O)N[C@@H]1[C@H]2C(=C(O)C[C@@H](O)[C@@H]2O)C(=O)O[C@]1(C)C(Cl)Cl | MIC |  | KM-R |  | 0.8 µg/mL
Cc1cc(C)c(C(=O)c2cc(C)ccc2O)c(C)c1 | MIC |  | H37Rv |  | 50 µg/mL
Fc1ccc(CCNCCNCCc2ccc(Cl)cc2Cl)cc1 | MIC |  |  |  | 25 µM
CC(=O)Nc1cc(S(C)(=O)=O)cc2cccnc12 | MIC |  | H37Rv |  | >100 µg/mL
N=C(N=c1cc(C(=O)NC(=N)NC(=N)Nc2ccc(Cl)cc2)n(C(=N)NC(=N)Nc2ccc(Cl)cc2)c(C(=O)NC(=N)NC(=N)Nc2ccc(Cl)cc2)c1)NC(=N)Nc1ccc(Cl)cc1 | inhibition | 6.25 µg/mL | H37Rv | resazurin | 34%
Nc1nccc(Nc2ccc(-c3ccccc3)cc2)n1 | MIC |  | H37Rv |  | 25 µg/mL
CCNc1cc(N)[n+](CC)c2n[nH]c(/N=C/c3cc(Cl)cc(Cl)c3O)c12 | inhibition | 12.5 µg/mL | H37Rv | BACTEC | -17%
O=C(O)c1ccc(OCCCCCCCCCCOc2ccc(C(=O)O)cc2)cc1 | MIC |  | H37Rv |  | >100 µg/mL
CCCCCCCCC(=S)N1CCN(c2ccccc2)CC1 | MIC bound |  | H37Rv | resazurin | >6.25 µg/mL
CC(=O)Nc1ccc(S(=O)(=O)N(CCO)c2ccccc2)cc1 | MIC |  | H37Rv |  | >100 µg/mL
O=C(NCCN1CCN2Cc3[nH]c4ccccc4c3CC2C1)c1ccc(Cl)cc1 | MIC bound |  | H37Rv | resazurin | >6.25 µg/mL
CCOC(=O)Nc1cc(N)c([N+](=O)[O-])c(N[C@H](C)/C(=C\O)c2ccc(O)cc2)n1 | EC50 |  | H37Rv |  | >12.5 µg/mL
CC(=O)N1C(=O)C2(NCCCN2)c2ccccc21 | inhibition | 12.8 µg/mL | H37Rv | BACTEC | 0%
c1ccc(C(NCCNCc2ccc3c(c2)OCO3)c2ccccc2)cc1 | MIC |  |  |  | 50 µM

For reference, 6 entries again:

| SMILES | measure | dose | strain | read by | result |
|---|---|---|---|---|---|
| Nc1cc2ccccc2cc1C(=O)O | MIC |  | H37Rv |  | 25 µg/mL |
| CC(=O)Oc1ccccc1C(OC(C)=O)OC(C)=O | MIC |  | H37Rv |  | 50 µg/mL |
| N=C(N=c1cc(C(=O)NC(=N)NC(=N)Nc2ccc(Cl)cc2)n(C(=N)NC(=N)Nc2ccc(Cl)cc2)c(C(=O)NC(=N)NC(=N)Nc2ccc(Cl)cc2)c1)NC(=N)Nc1ccc(Cl)cc1 | inhibition | 6.25 µg/mL | H37Rv | resazurin | 34% |
| CCOC(=O)Nc1cc(C[C@@H](C)[C@H](O)c2ccccc2)c(N)c(N)n1 | inhibition | 12.5 µg/mL | H37Rv |  | 0% |
| CC1(C)[C@@H]2CC[C@@]1(C)[C@@H](NCCNCC(c1ccccc1)c1ccccc1)C2 | MIC |  |  |  | 6.25 µM |
| C[C@H](N)C(=O)N[C@@H]1[C@H]2C(=C(O)C[C@@H](O)[C@@H]2O)C(=O)O[C@]1(C)C(Cl)Cl | MIC |  | KM-R |  | 0.8 µg/mL |